Data from patent US20140243348A1, “COMPOSITIONS AND METHODS FOR TREATING HERPES VIRUSES” (President and Fellows of Harvard College, priority 2011, published 2014).
Construct, isoform or probe ends are uncertain for at least one entry.

By UniProt entry, the sequences of proteins in these tests, tags left out. Where a name states a change or a piece, a line headed by the entry shows the natural chain unless it says otherwise.
UniProt P17470: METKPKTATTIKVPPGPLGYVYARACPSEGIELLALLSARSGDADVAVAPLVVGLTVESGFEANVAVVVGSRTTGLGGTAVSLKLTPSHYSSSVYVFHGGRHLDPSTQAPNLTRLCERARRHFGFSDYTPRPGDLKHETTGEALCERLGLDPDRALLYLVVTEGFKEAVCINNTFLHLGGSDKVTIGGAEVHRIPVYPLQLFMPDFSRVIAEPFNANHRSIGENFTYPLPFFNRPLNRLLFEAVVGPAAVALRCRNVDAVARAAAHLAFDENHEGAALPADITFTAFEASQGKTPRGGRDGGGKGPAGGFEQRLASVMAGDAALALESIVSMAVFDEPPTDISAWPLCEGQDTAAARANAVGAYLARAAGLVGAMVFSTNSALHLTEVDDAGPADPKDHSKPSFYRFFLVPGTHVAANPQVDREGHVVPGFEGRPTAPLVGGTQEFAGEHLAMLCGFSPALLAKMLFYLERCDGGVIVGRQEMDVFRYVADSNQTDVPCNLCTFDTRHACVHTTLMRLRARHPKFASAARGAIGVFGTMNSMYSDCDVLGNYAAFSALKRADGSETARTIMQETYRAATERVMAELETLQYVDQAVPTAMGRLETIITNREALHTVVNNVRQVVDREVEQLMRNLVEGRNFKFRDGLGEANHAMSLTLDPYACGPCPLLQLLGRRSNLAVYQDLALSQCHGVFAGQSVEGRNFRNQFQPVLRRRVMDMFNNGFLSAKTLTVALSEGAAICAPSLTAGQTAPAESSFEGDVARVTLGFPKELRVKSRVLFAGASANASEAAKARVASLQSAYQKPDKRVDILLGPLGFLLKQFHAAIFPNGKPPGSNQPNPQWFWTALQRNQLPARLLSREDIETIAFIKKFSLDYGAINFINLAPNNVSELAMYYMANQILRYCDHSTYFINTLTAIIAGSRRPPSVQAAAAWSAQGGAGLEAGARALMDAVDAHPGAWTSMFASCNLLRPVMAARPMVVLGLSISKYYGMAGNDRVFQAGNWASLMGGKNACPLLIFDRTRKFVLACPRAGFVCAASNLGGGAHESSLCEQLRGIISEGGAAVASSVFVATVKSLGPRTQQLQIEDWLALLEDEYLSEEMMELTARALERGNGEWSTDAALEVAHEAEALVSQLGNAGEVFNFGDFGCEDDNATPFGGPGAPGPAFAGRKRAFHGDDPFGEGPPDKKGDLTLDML

Target: ICP8 (wild type) (Herpes simplex virus 1 (strain KOS)) (UniProt P17470)
Experiment: EMSA
Conditions: 40 fmol DNA; 5% native polyacrylamide gel; purified recombinant protein; label: radiolabeled; single-stranded DNA

TTTTTTTTTTTTTTTTTTTTTTTTT [oligo(dT)25]
binding result: binds
